For this data set, the system named is coronal proteins on NPs. The arrangement: species or system mouse. Particulars: for V5 Sera_Nanoparticles Quantitative Value (Normalized Total Spectra): HBPE-NPs incubated 1 h with IAV day 5 (V5) mouse sera, 20:1 NP:sera, centrifuged and washed; for V5 Sera Alone (Control) Quantitative Value (Normalized Total Spectra): IAV day 5 (V5) mouse sera alone, no NPs (sera-only control).

The text below walks through data of patent US20240122867A1, “CORONAL PROTEIN-COATED NANOPARTICLES AND USES THEREOF” (UNIVERSITY OF CENTRAL FLORIDA RESEARCH FOUNDATION, INC., priority 2021, published 2024).

B1: Plasminogen (protein, UniProt P20918 20-812, looked up)
Plasminogen: DSLDGYISTQGASLFSLTKKQLAAGGVSDCLAKCEGETDFVCRSFQYHSKEQQCVIMAENSKTSSIIRMRDVILFEKRVYLSECKTGIGNGYRGTMSRTKSGVACQKWGATFPHVPNYSPSTHPNEGLEENYCRNPDNDEQGPWCYTTDPDKRYDYCNIPECEEECMYCSGEKYEGKISKTMSGLDCQAWDSQSPHAHGYIPAKFPSKNLKMNYCRNPDGEPRPWCFTTDPTKRWEYCDIPRCTTPPPPPSPTYQCLKGRGENYRGTVSVTVSGKTCQRWSEQTPHRHNRTPENFPCKNLEENYCRNPDGETAPWCYTTDSQLRWEYCEIPSCESSASPDQSDSSVPPEEQTPVVQECYQSDGQSYRGTSSTTITGKKCQSWAAMFPHRHSKTPENFPDAGLEMNYCRNPDGDKGPWCYTTDPSVRWEYCNLKRCSETGGSVVELPTVSQEPSGPSDSETDCMYGNGKDYRGKTAVTAAGTPCQGWAAQEPHRHSIFTPQTNPRAGLEKNYCRNPDGDVNGPWCYTTNPRKLYDYCDIPLCASASSFECGKPQVEPKKCPGRVVGGCVANPHSWPWQISLRTRFTGQHFCGGTLIAPEWVLTAAHCLEKSSRPEFYKVILGAHEEYIRGLDVQEISVAKLILEPNNRDIALLKLSRPATITDKVIPACLPSPNYMVADRTICYITGWGETQGTFGAGRLKEAQLPVIENKVCNRVEYLNNRVKSTELCAGQLAGGVDSCQGDSGGPLVCFEKDKYILQGVTSWGLGCARPNKPGVYVRVSRFVDWIEREMRNN
Turning to B1, the “V5 Sera_Nanoparticles Quantitative Value (Normalized Total Spectra)” value is given as 53.308 and the “V5 Sera Alone (Control) Quantitative Value (Normalized Total Spectra)” value (from here on “V5 Sera Alone … (Normalized Total Spectra)”) was found to be 40.71.

B2: C4b-binding protein (protein, UniProt P08607 57-469, looked up)
C4b-binding protein: KCGPPPAIPNALPASDVNRTDFESHTTLKYECLPGYGRGISRMMVYCKPSGEWEISVSCAKKHCRNPGYLDNGYVNGETITFGSQIEFSCQEGFILVGSSTSSCEVRGKGVAWSNPFPECVIVKCGPPPDISNGKHSGTEDFYPYNHGISYTCDPGFRLVGSPFIGCTVVNKTVPVWSSSPPTCEKIICSQPNILHGVIVSGYKATYTHRDSVRLACLNGTVLRGRHVIECQGNGNWSSLPTCEFDCDLPPAIVNGYYTSMVYSKITLVTYECDKGYRLVGKAIISCSFSKWKGTAPQCKALCQKPEVGNGTLSDEKDQYVESENVTIQCDSGFAMLGSQSISCSESGTWYPEVPRCEQEASEDLKPALTGNKTMQYVPNSHDVKMALEIYKLTLEVELLQLQIQKEKHTEAH
Turning to B2, the “V5 Sera_Nanoparticles Quantitative Value (Normalized Total Spectra)” value was 1.0879 and the “V5 Sera Alone … (Normalized Total Spectra)” value is listed as 20.355.

B3: Keratin, type II cytoskeletal 8 (protein, UniProt P11679 1-490, looked up)
Keratin, type II cytoskeletal …: MSIRVTQKSYKMSTSGPRAFSSRSFTSGPGARISSSSFSRVGSSSSSFRGSMGTGVGLGGFGGAGVGGITAVTVNQSLLSPLKLEVDPNIQAVRTQEKEQIKSLNNKFASFIDKVRFLEQQNKMLETKWSLLQQQKTSRSNMDNMFESYINNLRRQLEALGQEKLKLEAELGNMQGLVEDFKNKYEDEINKRTEMENEFVLIKKDVDEAYMNKVELESRLEGLTDEINFLRQIHEEEIRELQSQISDTSVVLSMDNSRSLDMDGIIAEVRAQYEDIANRSRAEAETMYQIKYEELQTLAGKHGDDLRRTKTEISEMNRNINRLQAEIEALKGQRASLEAAIADAEQRGEMAIKDAQTKLAELEAALQRAKQDMARQLREYQELMNVKLALDIEITTYRKLLEGEESRLESGMQNMSIHTKTTSGYSGGLSSSYGGLTSPGFSYGMSSFQPGFGSAGGSNTFSRTTKAVVVKKIETRDGKLVSESSDVVSK
For the molecule B3, the “V5 Sera_Nanoparticles Quantitative Value (Normalized Total Spectra)” value is on record as 1.0879 and the “V5 Sera Alone … (Normalized Total Spectra)” value was 1.8505.

B4: Keratin, type II cytoskeletal 79 (protein, UniProt Q8VED5 1-531, looked up)
Keratin, type II cytoskeletal …: MRSSLSRQTFSTKGGFSSNSASGGGGSRMRTSYSSVTMSRGSGGGGGVRSGSSSGGFGSRSLYNLGGKNISVSMACGASSGRALGGFGSGAYVGLGASRQTFGPVCPPGGIQEVTVNQSLLTPLNVEIDPEIQRVRTQEREQIKTLNNKFASFIDKVRFLEQQNKVLETKWALLQEQSQNTGVARSLEPFFENYLSTLRRQLDTKQSERGRLDMELRNVQDNLEDFKNKYEDEINKRTALENEFVLLKKDVDAAYMGRMDLHGKVDSLTQEIDFLQQLFEMELSQVQTNVSDTNVILSMDNNRNLDLDSIIAEVKAQYELIAQKSRAEAESWYQTKYEELQVTAGKHGDSLRDTKNEIAELTRTTQRLQGEVDAAKKQCQQLQTAIAEAEQNGEMALKDAKKKLGDLDTALHQAKEDLARMLREYQDLVSVKLALDMEIATYRKLLESEESRMSGDCPSAISISVTGNSTSVCAGGTAGFGNGLSLGGAGGASKGGFGSSVSYGAAKGGQVSGGTSILRKTTTVKTSSRRY
With B4, the “V5 Sera_Nanoparticles Quantitative Value (Normalized Total Spectra)” value is on record as 1.0879 and the “V5 Sera Alone … (Normalized Total Spectra)” value is 2.7757.

B5: Haptoglobin (protein, UniProt Q61646 19-347, looked up)
Haptoglobin: VELGNDAMDFEDDSCPKPPEIANGYVEHLVRYRCRQFYRLRAEGDGVYTLNDEKQWVNTVAGEKLPECEAVCGKPKHPVDQVQRIIGGSMDAKGSFPWQAKMISRHGLTTGATLISDQWLLTTAKNLFLNHSETASAKDITPTLTLYVGKNQLVEIEKVVLHPNHSVVDIGLIKLKQRVLVTERVMPICLPSKDYIAPGRVGYVSGWGRNANFRFTDRLKYVMLPVADQDKCVVHYENSTVPEKKNLTSPVGVQPILNEHTFCAGLTKYQEDTCYGDAGSAFAIHDMEEDTWYAAGILSFDKSCAVAEYGVYVRATDLKDWVQETMAKN
For the molecule B5, the “V5 Sera_Nanoparticles Quantitative Value (Normalized Total Spectra)” value was 53.308 and the “V5 Sera Alone … (Normalized Total Spectra)” value came out at 47.187.

B6: Ficolin-1 (protein, UniProt O70165 18-334, looked up)
Ficolin-1: SQALGQERGACPDVKVVGLGAQDKVVVIQSCPGFPGPPGPKGEPGSPAGRGERGFQGSPGKMGPAGSKGEPGTMGPPGVKGEKGDTGAAPSLGEKELGDTLCQRGPRSCKDLLTRGIFLTGWYTIHLPDCRPLTVLCDMDVDGGGWTVFQRRVDGSIDFFRDWDSYKRGFGNLGTEFWLGNDYLHLLTANGNQELRVDLQDFQGKGSYAKYSSFQVSEEQEKYKLTLGQFLEGTAGDSLTKHNNMSFTTHDQDNDANSMNCAALFHGAWWYHNCHQSNLNGRYLSGSHESYADGINWGTGQGHHYSYKVAEMKIRAS
B6: the “V5 Sera_Nanoparticles Quantitative Value (Normalized Total Spectra)” value worked out at 2.1758 and the “V5 Sera Alone … (Normalized Total Spectra)” value came out at 0.

B7: Complement C1q subcomponent subunit C (protein, UniProt Q02105 30-246, looked up)
Complement C1q subcomponent …: SAGCYGIPGMPGMPGAPGKDGHDGLQGPKGEPGIPAVPGTRGPKGQKGEPGMPGHRGKNGPRGTSGLPGDPGPRGPPGEPGVEGRYKQKHQSVFTVTRQTTQYPEANALVRFNSVVTNPQGHYNPSTGKFTCEVPGLYYFVYYTSHTANLCVHLNLNLARVASFCDHMFNSKQVSSGGVLLRLQRGDEVWLSVNDYNGMVGIEGSNSVFSGFLLFPD
As for B7, the “V5 Sera_Nanoparticles Quantitative Value (Normalized Total Spectra)” value was 2.1758 and the “V5 Sera Alone … (Normalized Total Spectra)” value came to 0.

B8: Extracellular superoxide dismutase [Cu—Zn] (protein, UniProt O09164 25-251, looked up)
Extracellular superoxide …: SSFDLADRLDPVEKIDRLDLVEKIGDTHAKVLEIWMELGRRREVDAAEMHAICRVQPSATLPPDQPQITGLVLFRQLGPGSRLEAYFSLEGFPAEQNASNRAIHVHEFGDLSQGCDSTGPHYNPMEVPHPQHPGDFGNFVVRNGQLWRHRVGLTASLAGPHAILGRSVVVHAGEDDLGKGGNQASLQNGNAGRRLACCVVGTSSSAAWESQTKERKKRRRESECKTT
Turning to B8, the “V5 Sera_Nanoparticles Quantitative Value (Normalized Total Spectra)” value is listed as 2.1758 and the “V5 Sera Alone … (Normalized Total Spectra)” value stood at 0.

B9: Keratin, type II cytoskeletal 74 (protein, UniProt Q6IFZ9 1-495, looked up)
Keratin, type II cytoskeletal …: MASCHTAGHRTGLSSRSLYSLGGNQHTSYNVAGGSARGTRHSFGYGYGGGRGSGFANSMFGSMALGANCPSVCLSGGIYQVTVNKSLLAPLNVELDPEIQKVRAQEREQIKALNDKFASFIDKVRFLEQQNQVLQTKWELLQQLDLSNCRRNLEPVYEAHISNLRKQLEMLSGERVRLDPDLRKMRDVVEDYKKRYEVEITQRTAAENEFVLLKKDADAAYTVKVELQDKVDSLDKDIKFLKCLYDEEISQLQTHASETSVILSMDNNRDLDLAGIIAEVRAHYEDIALKSKAEAEMLYQTKIQELQLAAGCYGDSLKHIRSEMLELDRLIQRIRCDIANVKKQCSNLEMAIADAEQRGDSALKDAWAKLDELEGALQQAKEELARMLCEYQELMGLKLSLDVEIATYRKLLEGEENRMSGENPSSVSVSVISSSCGSCGYHPSSMISDSEAGNAVGSPSTPRNSQSKTRGSSVDPRDAQDESAAAAGTLARKTT
In the case of B9, the “V5 Sera_Nanoparticles Quantitative Value (Normalized Total Spectra)” value is recorded as 1.0879 and the “V5 Sera Alone … (Normalized Total Spectra)” value is recorded as 0.

B10: Peroxiredoxin-2 (protein, UniProt Q61171 2-198, looked up)
Peroxiredoxin-2: ASGNAQIGKSAPDFTATAVVDGAFKEIKLSDYRGKYVVLFFYPLDFTFVCPTEIIAFSDHAEDFRKLGCEVLGVSVDSQFTHLAWINTPRKEGGLGPLNIPLLADVTKSLSQNYGVLKNDEGIAYRGLFIIDAKGVLRQITVNDLPVGRSVDEALRLVQAFQYTDEHGEVCPAGWKPGSDTIKPNVDDSKEYFSKHN
Turning to B10, the “V5 Sera_Nanoparticles Quantitative Value (Normalized Total Spectra)” value was 2.1758 and the “V5 Sera Alone … (Normalized Total Spectra)” value is listed as 0.9252.

B11: Biotinidase (protein, UniProt Q8CIF4 22-520, looked up)
Biotinidase: VSSASQEHREAEYYVAAVYEHPSVLSPNPLELVSRQEALELMKQNLDVYEQQVMAAAQKGVQIIVFPEDGIHGFNFTRTSIYPFLDFMPSPKLVRWNPCLEPFRFNDTEVLQRLSCMAIKGGMFLVANLGTKQPCLSSDPGCPQDGRYQFNTNVVFSDNGTLVDRYRKHNLYFEAAFDTPANVDLITFDTPFAGKFGVFTCFDILFFDPAVRLLRDFEVKHIVYPTAWMNQLPLLAAIEIQKAFATAFGVNVLAANIHHPTLGMTGSGIHTPLKSFWYHDMDDPKGHLIIAQVATNPQGLTGTGNTTSEMDPSHRKFLKILSGDPYCEKDAQEVHCDEAAKWNVNVPPTFHSEMMYDNFTLVPVWGTEGHLQVCSNSLCCHLLYERPTLSKELYALGVFDGLHTVHGTYYIQTCALVKCGGLGFDTCGQEITEAEGLFDFHLWGNFSTLYIFPLFLTSGMTLDTPDQLGWENDHYFLRKRGLSSGLVTAALYGRLYERK
In the case of B11, the “V5 Sera_Nanoparticles Quantitative Value (Normalized Total Spectra)” value worked out at 2.1758 and the “V5 Sera Alone … (Normalized Total Spectra)” value stood at 0.

B12: Ig lambda-2 chain C region (protein, UniProt P01844 1-104, looked up)
Ig lambda-2 chain C region: QPKSTPTLTVFPPSSEELKENKATLVCLISNFSPSGVTVAWKANGTPITQGVDTSNPTKEGNKFMASSFLHLTSDQWRSHNSFTCQVTHEGDTVEKSLSPAECL
As for B12, the “V5 Sera_Nanoparticles Quantitative Value (Normalized Total Spectra)” value came to 2.1758 and the “V5 Sera Alone … (Normalized Total Spectra)” value is on record as 0.
